Human monoclonal antibodies against the spike receptor-binding domain (heavy:light variable regions). IC50 against pseudoviruses bearing the spike of naturally observed variants; lower = stronger; >10 µg/ml means not reached at the top dose. No active / inactive call. The stated detection limit is 0.0005 µg/ml; values near or below 0.001 µg/ml lie at the floor of the assay.
B1: BD-744 (protein)
chain 1: EVQLVESGGGLVQPGRSLRLSCAASGFTFDDYAMHWVRQAPGKGLEWVSGASWNSGTIGYADSVKGRFIIIRDNAKNSLYLQMNSLRSEDTASYYCAKDFSRDGDAFDIWGQGTMVTVSS
chain 2: SYVLPQPPSVSVAPGKTARITCGGNNIEHKSVHWYQQKPRQAPVVVMYYDSDRPSGIPERFSGSNSGNTATLIISRVEAGDEAEYYCQVWDRSSDQPVFGGGTKLTVL
B2: BD-756 (protein)
chain 1: QVQLVQSGAEVRKPGSSVKVSCKTSGGTFSSNSISWVRQAPGQGLEWMGNFIPILGIANYAQNFQGRVTITADKSTSTAYMELSSLRSEDTAVFYCARVSYDSSGWGAAFDIWGQGTMVTVSS
chain 2: QSVLTQPPSVSGAPGQRVTISCTGSNSNIGAGYDVHWYQQLPGTVPKLLIYGNNNRPSGVPDRFSGSKSGTSASLAITGLQAEDEADYYCQSYDSGLTGELFGGGTKLTVL
B3: BD55-746 (protein)
chain 1: QVQLVQSGGGVVQPGRSLILSCAASEFAFSNFDMHWVRQAPGKGLEWVAVISADGSTTFYVDSVRGRFSVSRDNSKSTLSLQMNSLRPEDTAIYYCAKDAKVSYYYDVFDIWGQGTMVTVSS
chain 2: DIQMAQSPSSLSASVGDRVTITCRASQYISTYLSWYQQRPGRPPKLLIYGASTLRSGVPSRFSGSGSGTDFTLTINSLQPEDFATYFCQQSYVTPGVTFGGGTKVEIE
B4: BD-917 (protein)
chain 1: EVQLVESGGGLVQPGRSLRLSCAASGFTFDDYAMHWVRQVPGKGLEWVSGISWSGSSLQYADSVKGRFTISRDNAKNSLFLQMNSLRAEDTAFYYCAKGVLGEWEFLFDNWGQGTLVTVSS
chain 2: QSVLTQPPSASGTPGQRVTISCSGSSSNIGSYSVNWYQQLPGTAPKLLIYTHHQRPSGVPDRFSGSKSGTSASLTISGLQSEDEADYYCAGWDDSMSALVFGGGTKLTVL
B5: BD55-970 (protein)
chain 1: QVQLLQSGAEMKKPGSSVKISCETSGGAFSDFDINWVRLAPGQGLEWMGRIIPVLNIGNYAQRFEGRVTITADKATSTAYMELRSLESGDTALYYCAALSVGRHNFLGDYYFYQMEVWGQGTRVTVSS
chain 2: IVLTQSPGTLSLSPGERATLSCRASQSVSNRYLAWYQQKPGQAPRLLIYGANNRATGIADRFSGSGSGTDFTLTISRLEPEDFAIYYCQQYGDSPTFGGGTKVEIK
B6: BD55-979 (protein)
chain 1: QVQLVQSGPEVLKPGASVKLSCKLSGYSFTTYYVHWVRQAPGQGLEWMGRVNPGDGRAAYAQGFRGRLTLTADTSTSAAYMELSSLRSGDTAVYYCTRTAVTPPQTFFDYWGQGSLVTVSS
chain 2: SYVVTQPPSVSVAPGKTARITCGGDEIGSKNVHWYQQRPGQAPVLVVYDDTDRPSGIPERFSGSNSGNTATLTISRVEVGDEADYYCQVWDSPSLLFYVFGSGTKVTVL

Molecular target: SARS-CoV-2 Omicron BA.1 spike pseudovirus
Experiment: pseudovirus neutralization IC50; higher = weaker neutralization
Experimental: (§1)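 Single-round VSV luciferase pseudovirus mixed with antibody dilutions for 1 h and put on Huh-7 cells for about a day; IC50 from the dose curve.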

Row | Binder | pseudovirus neutralization IC50
1 | B1 | 0.151 µg/mL
2 | B2 | 0.168 µg/mL
3 | B3 | 2.39 µg/mL
4 | B4 | 2.83 µg/mL
5 | B5 | > 10 µg/mL
6 | B6 | > 10 µg/mL

Molecular target: SARS-CoV-2 Omicron BA.2 spike pseudovirus
Experiment: as above
Experimental: as §1

Row | Binder | pseudovirus neutralization IC50
7 | B1 | 0.138 µg/mL
8 | B2 | 0.11 µg/mL
9 | B3 | 1.1 µg/mL
10 | B4 | 2.83 µg/mL
11 | B5 | > 10 µg/mL
12 | B6 | > 10 µg/mL

Molecular target: SARS-CoV-2 Omicron BA.2.75 spike pseudovirus
Experiment: as above
Experimental: as §1

Row | Binder | pseudovirus neutralization IC50
13 | B1 | 0.126 µg/mL
14 | B2 | 0.192 µg/mL
15 | B3 | 1.82 µg/mL
16 | B4 | 2.81 µg/mL
17 | B5 | > 10 µg/mL
18 | B6 | > 10 µg/mL

Molecular target: SARS-CoV-2 Omicron BA.5 spike pseudovirus
Experiment: as above
Experimental: as §1

Row | Binder | pseudovirus neutralization IC50
19 | B1 | 0.899 µg/mL
20 | B2 | > 10 µg/mL
21 | B3 | 0.993 µg/mL
22 | B4 | 3.91 µg/mL
23 | B5 | > 10 µg/mL
24 | B6 | > 10 µg/mL

Molecular target: SARS-CoV-2 Omicron BQ.1.1 spike pseudovirus
Experiment: as above
Experimental: as §1

Row | Binder | pseudovirus neutralization IC50
25 | B1 | > 10 µg/mL
26 | B2 | > 10 µg/mL
27 | B3 | 2.01 µg/mL
28 | B4 | 3.34 µg/mL
29 | B5 | > 10 µg/mL
30 | B6 | > 10 µg/mL

Molecular target: SARS-CoV-2 Omicron XBB spike pseudovirus
Experiment: as above
Experimental: as §1

Row | Binder | pseudovirus neutralization IC50
31 | B1 | 5.18 µg/mL
32 | B2 | > 10 µg/mL
33 | B3 | 3.33 µg/mL
34 | B4 | 5.4 µg/mL
35 | B5 | > 10 µg/mL
36 | B6 | > 10 µg/mL

Molecular target: SARS-CoV-2 early D614G spike pseudovirus
Experiment: as above
Experimental: as §1

Row | Binder | pseudovirus neutralization IC50
37 | B1 | 0.0523 µg/mL
38 | B2 | 0.062 µg/mL
39 | B3 | 0.808 µg/mL
40 | B4 | 1.05 µg/mL
41 | B5 | > 10 µg/mL
42 | B6 | > 10 µg/mL
